# Sequence variants of PSTVd loop 15 after infection

Reference: Wu et al. 2024, doi:10.1371/journal.ppat.1012142.

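A pool of all variants was put on leaves of three Nicotiana benthamiana plants. Progeny were sequenced from the inoculated region (day 5), the margin of the inoculated leaf (day 10) and systemic leaves (day 12).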

The pool varies loop 15 of the PSTVd intermediate strain in the pattern GGAAACCGNNNNNNC; wild type is GGAAACCGCUACUAC (upper and lower strand joined, each 5' to 3', the first 7 letters being the upper strand, closing pairs included).

Values are reads per thousand in the sample; higher means more abundant, 0 means not found.
Each value is the mean of three plants.
"Pool" is the share in the plasmid pool used as inoculum, on the same scale.
The inoculated region was read from the minus strand, the other sites from the plus strand.
IR is the inoculated region, LM the leaf margin, Sys the systemic leaves.

sequence	pool	IR	LM	Sys
GGAAACCGGUCUUAC	0.256	0.327	0.124	0.0509
GGAAACCGUGGGCCC	0.208	0.143	0	0.00537
GGAAACCGUGCCCCC	0.320	0.0739	0	0
GGAAACCGCAGGGGC	0.192	0.0324	0.00539	0
GGAAACCGCCUUAGC	0.256	0.0686	0.00539	0
GGAAACCGAAUUAGC	0.272	0.111	0	0
GGAAACCGCAUGCCC	0.208	0.0911	0.0208	0
GGAAACCGGUAUUGC	0.192	0.301	0.0833	0.0107
GGAAACCGCGCCUAC	0.192	0.455	0.108	0.0540
GGAAACCGUUCUGAC	0.208	0.129	0.0195	0
GGAAACCGUACAUUC	0.224	0.276	0.686	0.0107
GGAAACCGCGAUGCC	0.208	0.114	0.00668	0
GGAAACCGCAAGCUC	0.176	0.0857	0.00668	0
GGAAACCGGAUAUCC	0.144	0.0565	0.0321	0
GGAAACCGAAAGCAC	0.240	0.285	0.104	0.0268
GGAAACCGGCCAGAC	0.208	0.113	0.00742	0
GGAAACCGGACGCGC	0.336	0.0866	0.00668	0
GGAAACCGACCGAGC	0.272	0.111	0	0
GGAAACCGUCCGAUC	0.0800	0.300	0.0616	0.00537
GGAAACCGGGUCUGC	0.160	0.0516	0	0
GGAAACCGCUUUCCC	0.304	0.0906	0.0175	0
GGAAACCGAACACAC	0.208	0.102	0.00668	0
GGAAACCGCUCGACC	0.208	0.0669	0	0
GGAAACCGGCUAUGC	0.208	0.0837	0	0
GGAAACCGUAUUCUC	0.208	0.108	0.0128	0
GGAAACCGUGCAAGC	0.160	0.0815	0.00539	0
GGAAACCGCGCGACC	0.208	0.147	0.0262	0
GGAAACCGGUCGACC	0.224	0.113	0	0
GGAAACCGUCAAAGC	0.176	0.0721	0.0334	0
GGAAACCGAAUGUUC	0.256	0.341	0.142	0.0161
GGAAACCGCACUGGC	0.256	0.135	0.00668	0
GGAAACCGAUCCCAC	0.160	0.0739	0.00539	0
GGAAACCGGAUCGAC	0.336	0.0619	0.0134	0
GGAAACCGCGGUUGC	0.192	0.138	0.0202	0.00537
GGAAACCGUCGCAGC	0.288	0.0289	0.0187	0.00760
GGAAACCGGGAUGCC	0.208	0.107	0.0187	0
GGAAACCGACUGUGC	0.144	0.121	0	0
GGAAACCGUCCGGUC	0.272	0.528	0.101	0.0107
GGAAACCGGCUUACC	0.192	0.101	0.0175	0
GGAAACCGGACUUGC	0.208	0.0558	0.0121	0
GGAAACCGGGUCGGC	0.256	0.180	0.00668	0
GGAAACCGUGGAUAC	0.288	0.274	0.106	0.0812
GGAAACCGCAGAGCC	0.224	0.0911	0	0
GGAAACCGUGUCGAC	0.176	0.0813	0.0121	0.00537
GGAAACCGGAACACC	0.240	0.108	0.00668	0
GGAAACCGAGGCGCC	0.240	0.0669	0	0.00537
GGAAACCGGACAAUC	0.240	0.110	0.0121	0.00760
GGAAACCGUUGAAGC	0.256	0.110	0.0141	0
GGAAACCGUCUAGAC	0.176	0.109	0.00742	0
GGAAACCGACCGGGC	0.160	0.154	0.00539	0.00537
GGAAACCGUACGCAC	0.160	0.0984	0	0
GGAAACCGUUACUUC	0.176	0.313	0.0980	0.0537
GGAAACCGCAACGCC	0.128	0.164	0.00539	0.00504
GGAAACCGCGUGACC	0.288	0.0993	0.152	0.00537
GGAAACCGCGACUCC	0.240	0.344	0.118	0.0476
GGAAACCGGCCGCAC	0.208	0.0900	0	0
GGAAACCGGACACUC	0.176	0.0814	0	0.00537
GGAAACCGUCUCUAC	0.240	0.340	0.169	0.0107
GGAAACCGCCUGCGC	0.192	0.113	0.00539	0
GGAAACCGGUACAAC	0.288	0.329	0.146	0.0158
GGAAACCGCUUCGUC	0.192	0.101	0.00668	0
GGAAACCGACACCAC	0.128	0.343	0.103	0

The opening 6 entries, copied out:

sequence	pool	IR	LM	Sys
GGAAACCGGUCUUAC	0.256	0.327	0.124	0.0509
GGAAACCGUGGGCCC	0.208	0.143	0	0.00537
GGAAACCGUGCCCCC	0.320	0.0739	0	0
GGAAACCGCAGGGGC	0.192	0.0324	0.00539	0
GGAAACCGCCUUAGC	0.256	0.0686	0.00539	0
GGAAACCGAAUUAGC	0.272	0.111	0	0

For reference, wild type rose from 33.9 per thousand in the pool to 202, 200, 159 (inoculated region), 724, 746, 710 (leaf margin) and 856, 883, 880 (systemic leaves).
Samples held 43,870 to 66,106 reads, so the smallest values rest on one or two reads.
Sequences that differ at fixed positions probably stem from PCR or sequencing errors, and defective variants can be carried along by functional ones.